Like-named read-outs stand apart in the source and are kept apart here.
Experiments:
[1] = system: SARS-CoV-2 wild-type Spike Vpps
[2] = system: SARS-CoV-2 wild-type Spike Vpps; remark: listed apart in the source
[3] = system: wild-type SARS-CoV-2 Spike Vpps
[4] = system: wild-type SARS-CoV-2 Spike Vpps; remark: listed apart in the source

oligomeric proanthocyanidins [OPCs]
SI (ratio of CC50 to EC50) [1]: 76.82
SI (ratio of CC50 to EC50) [2]: 40.06
SI (ratio of CC50 to EC50) [3]: 22.61
SI (ratio of CC50 to EC50) [4]: 55.91
